Pooled drug test results. Numbers come from NIAID ChemDB, via PubChem.

Shared fields: growth or infection tests; species: HIV-1

Two numbers with a dash give a range or band. Rows are shuffled and stem from different studies. ECn: concentration that inhibits the pathogen or its effect by n%.

{"structure": "CNc1cc2c(=O)c(C(=O)O)cn(C)c2cc1N1CCN(c2ccccn2)CC1", "strain": "IIIB", "read-out": "EC50", "cells": "MT-4", "read by": "cytopathic effect / MTT", "result": "5.33 µM"}
{"structure": "CC(=O)N[C@@H](CCCCNCc1ccccc1)C(=O)NCc1ccccc1", "strain": "IIIB", "read-out": "EC50", "cells": "CEM-IW + CEM", "read by": "cytopathic effect / XTT", "result": ">100 µM"}
{"structure": "COc1ccc(-c2ncccc2OCC(=O)Nc2ccc(S(N)(=O)=O)cc2)cc1", "strain": "IIIB", "read-out": "EC50", "cells": "MT-4", "read by": "MTT / absorbance", "result": ">243 µM"}
{"structure": "CNC(=O)NCCC[C@H](NC(C)=O)C(=O)NCc1ccccc1", "strain": "IIIB", "read-out": "EC50", "cells": "CEM-IW + CEM", "read by": "cytopathic effect / XTT", "result": ">100 µM"}
{"structure": "CCOC(=O)c1ccc(NC(=O)COc2cccnc2-c2cccc3ccccc23)c(Br)c1", "strain": "IIIB", "read-out": "EC50", "cells": "MT-4", "read by": "MTT / absorbance", "result": ">149 µM"}
{"structure": "Cc1ccc(S(=O)(=O)c2ccsc2NC(=O)C(F)(F)F)cc1", "strain": "IIIB", "read-out": "EC50", "cells": "CEM + CEM/O", "read by": "cytopathic effect / MTT", "result": ">8 µg/mL"}
{"structure": "Nc1nc(N)n(CCOCP(=O)(O)O)c(=O)c1C1CC1", "strain": "IIIB", "read-out": "EC50", "cells": "CEM", "read by": "syncytia", "result": "≥300 µM"}
{"structure": "NC(=O)c1ccc(NC(=O)COc2cccnc2-c2ccc(C(F)(F)F)cc2)cc1", "strain": "IIIB", "read-out": "EC50", "cells": "MT-4", "read by": "MTT / absorbance", "result": ">69.5 µM"}
{"structure": "CN(C)c1cc2c(=O)c(C(=O)O)cn(C)c2cc1N1CCN(c2ccccn2)CC1", "strain": "IIIB", "read-out": "EC50", "cells": "MT-4", "read by": "cytopathic effect / MTT", "result": ">13.03 µM"}
{"structure": "Nc1ccc(S(=O)(=O)N(CC[C@H](O)CN(CC2CCCC2)S(=O)(=O)c2ccc(N)cc2)CC2CCCC2)cc1", "strain": "IIIB", "read-out": "EC50", "cells": "CEM", "read by": "p24", "result": "<1 µM"}
{"structure": "Cc1cc(C)c(Oc2nc(Nc3ccc(C#N)cc3)nc3c(C)csc23)c(C)c1", "strain": "L1001-K103N", "read-out": "EC50", "cells": "HeLa", "read by": "luciferase", "result": "0.01–0.1 µM"}
{"structure": "CC(=O)N[C@@H](CCCCN(Cc1ccccc1)C(=O)NCCCl)C(=O)NCc1ccccc1", "strain": "IIIB", "read-out": "EC50", "cells": "CEM-IW + CEM", "read by": "cytopathic effect / XTT", "result": ">100 µM"}
{"structure": "Nc1sccc1S(=O)(=O)c1ccc(F)cc1", "strain": "IIIB", "read-out": "EC50", "cells": "CEM + CEM/O", "read by": "cytopathic effect / MTT", "result": ">8 µg/mL"}
{"structure": "COc1ccc2ccc3c(c2c1)OC1(CCN(Cc2ccc(C#N)cc2)CC1)NC3=O", "read-out": "EC50", "cells": "PBMC", "read by": "ELISA", "result": "0.39 µM"}
{"structure": "CN1C=C(C(=O)O)Cc2ccc(N3CCN(c4nc5ccccc5s4)CC3)nc21", "strain": "IIIB", "read-out": "EC50", "cells": "MT-4", "read by": "cytopathic effect / MTT", "result": "0.06 µM"}
{"structure": "Cc1c(N)nc(N)n(CCOCP(=O)(O)O)c1=O", "strain": "IIIB", "read-out": "EC50", "cells": "CEM", "read by": "syncytia", "result": "≥300 µM"}
{"structure": "CC(C)=CCOc1cc(NC(=S)c2ccoc2C)ccc1Cl", "strain": "WEJO", "read-out": "EC50", "cells": "PBMC", "read by": "p24", "result": "0.007 µM"}
{"structure": "CC(=O)N[C@@H](CCCNC(=O)N(C)N=O)C(=O)NCc1ccccc1", "strain": "IIIB", "read-out": "EC50", "cells": "CEM-IW + CEM", "read by": "cytopathic effect / XTT", "result": ">100 µM"}
{"structure": "CS(=O)c1ccc(-c2nc(-c3ccc(F)cc3)c(-c3ccncc3)[nH]2)cc1", "strain": "Nevirapine resistant N119 Clinical isolate", "read-out": "EC50", "cells": "PBMC", "read by": "p24", "result": ">1 µM"}
{"structure": "Cc1ccc(NC(=O)COc2cccnc2-c2cccc3ccccc23)c([N+](=O)[O-])c1", "strain": "RES056", "read-out": "EC50", "cells": "MT-4", "read by": "MTT / absorbance", "result": ">19.3 µM"}
{"structure": "C[C@]1(CO)[C@H](Cn2cnc3c(=O)[nH]c(N)nc32)C1(F)F", "strain": "RF", "read-out": "EC50", "cells": "CEM", "result": ">100 µM"}
{"structure": "C=C1CN(S(=O)(=O)c2ccc(C)cc2)CCCN(Cc2ccccc2)CCCN(S(=O)(=O)c2ccc(C)cc2)C1", "strain": "RF", "read-out": "EC50", "cells": "PBMC", "read by": "cytopathic effect", "result": "1.9 µM"}
{"structure": "CC(=O)N[C@@H](CCCCN)C(=O)NCc1ccccc1", "strain": "IIIB", "read-out": "EC50", "cells": "CEM-IW + CEM", "read by": "cytopathic effect / XTT", "result": ">100 µM"}
{"structure": "CC(C)CN(C[C@H](O)C[C@@H](CN[C@H]1Cc2ccccc2[C@H]1O)Cc1ccccc1)S(=O)(=O)c1ccccc1", "strain": "IIIB", "read-out": "EC90", "cells": "CEM", "read by": "p24", "result": "1 µM"}
{"structure": "N#CCc1c(N)nc(N)n(CCOCP(=O)(O)O)c1=O", "strain": "IIIB", "read-out": "EC50", "cells": "CEM", "read by": "syncytia", "result": "≥300 µM"}
{"structure": "Cc1cc(C#N)cc(C)c1Oc1nc(Nc2ccc(C#N)cc2)nc2sccc12", "strain": "Y181C", "read-out": "EC50", "cells": "HeLa", "read by": "luciferase", "result": "<0.01 µM"}
{"structure": "Cc1ccnc2c1NC(=O)c1cccnc1N2C1CC1", "strain": "RES056", "read-out": "EC50", "cells": "MT-4", "read by": "MTT / absorbance", "result": ">15 µM"}
{"structure": "CCOC(=O)Cc1c(N)nc(N)n(CCOCP(=O)(O)O)c1=O", "strain": "IIIB", "read-out": "EC50", "cells": "CEM", "read by": "syncytia", "result": "≥300 µM"}
{"structure": "O=C(O)c1cc(-n2cccc2)ccc1Cl", "strain": "92UG092 X4 CLADE A", "read-out": "EC90", "cells": "PBMC/5.25M7", "read by": "luciferase / cell fusion", "result": "31.58 µM"}
{"structure": "Cc1ccc(S(=O)(=O)c2ccsc2N)cc1", "strain": "IIIB", "read-out": "EC50", "cells": "CEM + CEM/O", "read by": "cytopathic effect / MTT", "result": "12.7 µg/mL"}
{"structure": "Cc1cc(C)c(Oc2nc(Nc3ccc(C#N)cc3)nc3sccc23)c(C)c1", "read-out": "EC50", "cells": "HeLa", "read by": "luciferase", "result": "<0.01 µM"}
{"structure": "COc1ccc(S(=O)(=O)N(CC(C)C)C[C@@H](O)CCN(CC2CCCC2)S(=O)(=O)Cc2ncc[nH]2)cc1", "strain": "IIIB", "read-out": "EC50", "cells": "CEM", "read by": "p24", "result": "<1 µM"}
{"structure": "C[C@]1(CO)[C@@H](Cn2cnc3c(=O)[nH]c(N)nc32)C1(F)F", "strain": "RF", "read-out": "EC50", "cells": "MT-4", "result": ">100 µM"}
{"structure": "CCN1c2ncc(CCOc3cccc4c3ccc[n+]4[O-])cc2C(=O)Nc2c(C)cc(Cl)nc21", "strain": "IIIB", "read-out": "EC50", "cells": "C8166", "read by": "p24", "result": "0.00037 µM"}
{"structure": "CC(C)(C)OC(=O)NC(Cc1ccccc1)C(=O)C(=O)C(=O)N(CC1CCCC1)S(=O)(=O)c1ccccc1", "strain": "IIIB", "read-out": "EC90", "cells": "CEM", "read by": "p24", "result": "1 µM"}
{"structure": "O=C(O)c1cn(C2CC2)c2nc(N3CCN(c4ccccn4)CC3)ccc2c1=O", "strain": "IIIB", "read-out": "EC50", "cells": "MT-4", "read by": "cytopathic effect / MTT", "result": ">8.32 µM"}
{"structure": "CC(=O)N[C@@H](CCCCN(Cc1ccccc1)C(=O)N(CCCl)N=O)C(=O)NCc1ccccc1", "strain": "IIIB", "read-out": "EC50", "cells": "CEM-IW + CEM", "read by": "cytopathic effect / XTT", "result": ">100 µM"}
{"structure": "Cc1cc(C#N)cc(C)c1Oc1nc(Nc2ccc(C#N)cc2)nc2ccsc12", "strain": "Y181C", "read-out": "EC50", "cells": "HeLa", "read by": "luciferase", "result": "0.01–0.1 µM"}
{"structure": "NS(=O)(=O)c1ccc(NC(=O)COc2cccnc2-c2cccc3ccccc23)cc1", "strain": "IIIB", "read-out": "EC50", "cells": "MT-4", "read by": "MTT / absorbance", "result": "41.5 µM"}
{"structure": "Nc1ccc(S(=O)(=O)NC(Cc2ccccc2)C(F)(F)C(=O)[C@@H](Cc2ccccc2)NC(=O)O[C@H]2CCOC2)cc1", "strain": "IIIB", "read-out": "EC50", "cells": "CEM", "read by": "p24", "result": "<1 µM"}
{"structure": "COC(=O)c1ccc(NC(=O)COc2cccnc2-c2cccc3ccccc23)c(Br)c1", "strain": "IIIB", "read-out": "EC50", "cells": "MT-4", "read by": "MTT / absorbance", "result": "≥9.85 µM"}
{"structure": "CCCCCCCCNCC(O)CCCCCCCCCn1c(=O)c2c(ncn2C)n(C)c1=O", "strain": "LAV", "read-out": "EC50", "cells": "U1(HIV-1 (LAV)) + U1", "read by": "p24", "result": "<5 µM"}
{"structure": "O=C(OC1COCOC1)N(Cc1ccccc1)CC(O)CN(CC1CCCC1)S(=O)(=O)c1ccccc1", "strain": "IIIB", "read-out": "EC50", "cells": "CEM", "read by": "p24", "result": "<1 µM"}
{"structure": "O=C(Nc1sc(Br)cc1S(=O)(=O)c1ccc(Cl)cc1)C(F)(F)F", "strain": "IIIB", "read-out": "EC50", "cells": "CEM + CEM/O", "read by": "cytopathic effect / MTT", "result": ">8 µg/mL"}
{"structure": "NC(=O)c1ccc(NC(=O)COc2cccnc2-c2cccc3ccccc23)cc1", "strain": "IIIB", "read-out": "EC50", "cells": "MT-4", "read by": "MTT / absorbance", "result": ">29.4 µM"}
{"structure": "CCOC(=O)Cc1c(N)nc(N)nc1OCCOCP(=O)(O)O", "strain": "IIIB", "read-out": "EC50", "cells": "CEM", "read by": "syncytia", "result": "≥300 µM"}
{"structure": "N=C1Sc2ccccc2C2=NCCCN12", "strain": "98IN022", "read-out": "EC50", "cells": "PBMC", "read by": "ELISA", "result": "0.4 µM"}